Anti-infective test results gathered from many reports (values: NIAID ChemDB through PubChem).

Shared fields: tests in culture; species: HIV-1; read-out: EC50

a–b is a range or a potency band. ECn is the concentration giving n% inhibition of infection, replication or growth. Blank or dashed fields: not listed here. Rows are shuffled and stem from different studies.

smiles	strain or isolate	mutations	cell line	method	conditions	value
CC(=O)O[C@@H]1C[C@@H](C)[C@@H]2C[C@@H]2C2=C(C(=O)OC2)[C@@H]1[C@H](C)CCC=C(C)C	-	-	293T	luciferase	pseudotyped	>30 µM
CN(C)S(=O)(=O)/N=C(\c1ccccc1)N1CCN(C(=O)C(=O)c2c[nH]c3cccc(F)c23)CC1	Luciferase reporter virus	-	HeLa(CD4+) + HeLa	luciferase	-	>0.5 µM
Nc1nccc2c1ncn2[C@@H]1CC[C@@H](O)[C@H]1O	-	-	HeLa CD4+/TAT+ + HeLa	β-galactosidase	-	0.29 µM
COCCOc1cc(Cl)ccc1CNCC[C@@]12CC[C@]3(C)[C@H](CC[C@@H]4[C@@]5(C)CC[C@H](OC(=O)[C@H]6C[C@@H](C(=O)O)C6(C)C)C(C)(C)[C@@H]5CC[C@]43C)C1=C(C(C)C)C(=O)C2	92HT599	-	MT-2	p24 / ELISA	-	<1 µM
CCCc1cc(=O)oc2c3c(c4c(c12)OC(C)(C)CC4)O[C@@H](C)[C@H](C)[C@@H]3O	Costatolide-resistant (RT L100I T139I)	RT-L100I T139I	CEM + CEM-SS	XTT	-	>27 µM
CCC(C)C(NC(=O)c1ccccc1SSc1ccccc1C(=O)NC(C(=O)O)C(C)CC)C(=O)O	ADA	-	Monocytes/macrophages	p24	-	35 µM
CC(C)C1=C2[C@H]3CC[C@@H]4[C@@]5(C)CC[C@H](OC(=O)[C@H]6C[C@@H](C(=O)O)C6(C)C)C(C)(C)[C@@H]5CC[C@@]4(C)[C@]3(C)CC[C@@]2(CC(=O)NCc2cccc(Cl)c2)CC1=O	92HT599	-	MT-2	p24 / ELISA	-	<1 µM
CC(=O)O[C@H]1CC[C@@]2(C)[C@@H](CC[C@@]3(C)[C@H]2CC=C2[C@@H]([C@H](C)CC/C=C(\C)C(=O)O)CC[C@@]23C)C1(C)C	deltaTAT/Rev MC99	-	1A2	syncytia	-	5.8 µg/mL
CC1=C(C(=O)Nc2ccc(Cl)c(C(=O)OC(C)C)c2)SCCO1	IIIB	-	CBMC	syncytia	-	1 µM
CC[C@@H](O)C1=C[C@@H](n2cnc3c(N)ncnc32)[C@H](O)[C@@H]1O	-	-	HeLa CD4+/TAT+ + HeLa	β-galactosidase	-	4.6 µM
NC(N)=NCCC[C@H](NC(=O)CCCCCNC(=O)CN(CCNC(=O)CN(CCNC(=O)OCc1ccccc1)C(=O)Cn1cnc2c(N)ncnc21)C(=O)Cn1cnc2c(=O)[nH]c(N)nc21)C(=O)O	-	-	PBMC/IIIB + PBMC	cytopathic effect / MTT	-	>200 µM
C/C1=C/CC/C(C)=C2/C[C@@]3(C)CC[C@@](O)(C(C)C)[C@@H]3C2C1=O	-	-	293T	luciferase	pseudotyped	>30 µM
N#CN=C(c1ccccc1)N1CCN(C(=O)C(=O)c2c[nH]c3cc(F)cc(F)c23)CC1	Luciferase reporter virus	-	HeLa(CD4+) + HeLa	luciferase	-	<0.5 µM
CC(C)C1=C2[C@H]3CC[C@@H]4[C@@]5(C)CC[C@H](OC(=O)[C@H]6C[C@@H](C(=O)O)C6(C)C)C(C)(C)[C@@H]5CC[C@@]4(C)[C@]3(C)CC[C@@]2([C@@H](O)CNCc2ccc(Cl)cc2OC2CCOC2)CC1=O	92HT599	-	MT-2	p24 / ELISA	-	<1 µM
CS(=O)(=O)/N=C(\c1ccccc1)N1CCN(C(=O)C(=O)c2c[nH]c3c(-n4ccnn4)ncc(F)c23)CC1	Luciferase reporter virus	-	HeLa(CD4+) + HeLa	luciferase	-	<0.5 µM
O=C(CNC(=O)COc1ccccc1)NCc1ccc(C(=O)N2CCCCC2)cc1	92BR025	-	PBMC	RT activity	-	16.3 µM
CC(=O)CC(c1ccccc1)c1c(O)c2ccccc2oc1=O	-	-	U1	p24	-	0.001–0.01 µM
NC(N)=NCCC[C@H](NC(=O)CCNC(=O)CN(CCNC(=O)CN(CCNC(=O)OCc1ccccc1)C(=O)Cn1cnc2c(N)ncnc21)C(=O)Cn1cnc2c(=O)[nH]c(N)nc21)C(=O)O	-	-	PBMC/IIIB + PBMC	cytopathic effect / MTT	-	11 µM
COc1cnc(-c2cnccn2)c2[nH]cc(C(=O)C(=O)N3CCN(C(=N)c4ccccc4)C[C@@H]3C)c12	Luciferase reporter virus	-	HeLa(CD4+) + HeLa	luciferase	-	<0.5 µM
C=C1CC[C@@H](O)[C@@]2(C)CCC3=C(C(C)C)[C@@H](OC(C)=O)C[C@]3(C)C[C@]12O	-	-	293T	luciferase	pseudotyped	>30 µM
CC(C)C1=C2[C@H]3CC[C@@H]4[C@@]5(C)CC[C@H](OC(=O)[C@H]6C[C@@H](C(=O)O)C6(C)C)C(C)(C)[C@@H]5CC[C@@]4(C)[C@]3(C)CC[C@@]2([C@@H](O)CNC(=O)C(C)(C)NC(=O)c2ccc(Cl)cc2OCCN2CCS(=O)(=O)CC2)CC1=O	92HT599	-	MT-2	p24 / ELISA	-	<1 µM
COc1ncc(OC)c2c(C(=O)C(=O)N3CCC(=C(Br)c4ccccc4)CC3)c[nH]c12	-	-	HeLa	luciferase	-	<1 µM
N#CN=C(c1ccccc1)N1CCN(C(=O)C(=O)c2c[nH]c3c(-n4ccnn4)ncc(F)c23)CC1	Luciferase reporter virus	-	HeLa(CD4+) + HeLa	luciferase	-	<0.5 µM
Nc1ncnc2c1ncn2[C@@H]1C=C(CO)[C@@H](O)[C@H]1O	-	-	HeLa CD4+/TAT+ + HeLa	β-galactosidase	-	1.9 µM
N#CN=C(c1ccccc1)N1CCN(C(=O)C(=O)c2c[nH]c3c(Br)ccc(F)c23)CC1	Luciferase reporter virus	-	HeLa(CD4+) + HeLa	luciferase	-	<0.5 µM
C=C1C[C@H](O)[C@@H]([C@@](C)(O)CCC=C(C)C)[C@@H](O)[C@@H]2C(C)=CC[C@@H]12	-	-	293T	luciferase	pseudotyped	>30 µM
CC(C)C1=C2[C@H]3CC[C@@H]4[C@@]5(C)CC[C@H](OC(=O)[C@H]6C[C@@H](C(=O)O)C6(C)C)C(C)(C)[C@@H]5CC[C@@]4(C)[C@]3(C)CC[C@@]2(CC(=O)NCC(F)(NC(=O)c2ccc(Cl)cc2)C(C)O)CC1=O	92HT599	-	MT-2	p24 / ELISA	-	<1 µM
Cc1cc(S(N)(=O)=O)ccc1NC(=O)COc1ccc(Cl)cc1C(=O)c1cc(F)cc(C(F)(F)F)c1	IIIB	RT-K103N Y181C	HELA MAGI	luciferase	-	0.036 µM
C[C@H]1[C@@H](OC(=O)CCC(=O)O)O[C@@H]2O[C@@]3(C)CC[C@H]4[C@H](C)CC[C@@H]1[C@@]24OO3	BaL	-	PM1	p24	-	>0.6 µM
N#CC(=C1CCN(C(=O)C(=O)c2c[nH]c3c(Cl)ccnc23)CC1)c1ccccc1	-	-	HeLa	luciferase	-	<1 µM
CC(=O)OC/C1=C/CC=C(C)CC[C@@H]([C@H](C)CCC=C(C)C)[C@@H](O)[C@H]1O	-	-	293T	luciferase	pseudotyped	>30 µM
CC(C)C[C@H](NC(=O)[C@@H](O)[C@H](N)Cc1ccccc1)C(=O)O	IIIB	-	HuT-78 + HUT 78	syncytia	-	<20 µg/mL
NC(N)=NCCC[C@H](NC(=O)CCNC(=O)CN(CCNC(=O)CN(CCNC(=O)OCc1ccccc1)C(=O)Cn1cnc2c(=O)[nH]c(N)nc21)C(=O)Cn1cnc2c(N)ncnc21)C(=O)O	-	-	PBMC/IIIB + PBMC	cytopathic effect / MTT	-	3.5 µM
CC(C)C1=C2[C@H]3CC[C@@H]4[C@@]5(C)CC[C@H](OC(=O)[C@H]6C[C@@H](C(=O)O)C6(C)C)C(C)(C)[C@@H]5CC[C@@]4(C)[C@]3(C)CC[C@@]2([C@@H](O)CNC[C@@H](CN)C(C)C)CC1=O	92HT599	-	MT-2	p24 / ELISA	-	<1 µM
CC(C)=CCC[C@@H](C)[C@@H]1[C@H](O)C/C(C)=C/C/C=C(/C=O)[C@H]1C=O	-	-	293T	luciferase	pseudotyped	>30 µM
CC(C)C1=C2[C@H]3CC[C@@H]4[C@@]5(C)CC[C@H](OC(=O)[C@H]6C[C@@H](C(=O)O)C6(C)C)C(C)(C)[C@@H]5CC[C@@]4(C)[C@]3(C)CC[C@@]2([C@@H](O)CNC(=O)[C@@H]2CCCN2)CC1=O	92HT599	-	MT-2	p24 / ELISA	-	<1 µM
CC(=O)OC[C@@H]1/C(C=O)=C\C=C(\C)CC[C@@H](O)[C@H]1[C@H](C)CCC=C(C)C	-	-	293T	luciferase	pseudotyped	>30 µM
Nc1nc2c(ncn2[C@@H]2O[C@H](CO)[C@@H](O)[C@H]2O)c(=O)o1	IIIB	-	U-937/HIV-1(IIIB) + U-937	RT activity	-	27 µg/mL
COc1ccnc2[nH]cc(C(=O)C(=O)N3CC/C(=C(\C#N)c4ccccc4)CC3C)c12	-	-	HeLa	luciferase	-	<1 µM
CC(=O)SCCOP(=O)(OCCSC(C)=O)OC[C@@H]1CC[C@H](n2ccc(N)nc2=O)O1	RF	-	MOLT-4/8 + MOLT-4	MTT / p24	-	0.93 µM
CC(=O)O[C@H]1[C@H]2C(C)=CC=C[C@@]2(C)C(=O)C[C@@H]2[C@]1(C)CC[C@@]2(O)C(C)C	-	-	293T	luciferase	pseudotyped	>30 µM
Nc1nc2c(ncn2[C@H]2C[C@H](O)[C@@H](CO)O2)c(=O)o1	IIIB	-	U-937/HIV-1(IIIB) + U-937	RT activity	-	>100 µg/mL
CC(C)C1=C2[C@H]3CC[C@@H]4[C@@]5(C)CC[C@H](OC(=O)[C@H]6C[C@@H](C(=O)O)C6(C)C)C(C)(C)[C@@H]5CC[C@@]4(C)[C@]3(C)CC[C@@]2([C@@H](O)CNC(=O)C(C)(C)NC(=O)c2ccc(S(C)(=O)=O)cc2)CC1=O	92HT599	-	MT-2	p24 / ELISA	-	<1 µM
COC(=O)[C@H](CCCN=C(N)N)NC(=O)CCCCCNC(=O)CN(CCNC(=O)CN(CCNC(=O)OCc1ccccc1)C(=O)Cn1cnc2c(N)ncnc21)C(=O)Cn1cnc2c(=O)[nH]c(N)nc21	-	-	PBMC/IIIB + PBMC	cytopathic effect / MTT	-	1 µM
COc1cnc(-n2cnc(C)n2)c2[nH]cc(C(=O)C(=O)N3CCN(C(=NC#N)c4ccccn4)CC3)c12	Luciferase reporter virus	-	HeLa(CD4+) + HeLa	luciferase	-	<0.5 µM
COc1cnc(-c2ccc(C#N)cc2)c2[nH]cc(C(=O)C(=O)N3CCC(=C(C#N)c4ccccc4)CC3)c12	-	-	HeLa	luciferase	-	<1 µM
CC(=O)Nc1ccc(SSc2ccc(NC(C)=O)cc2C(N)=O)c(C(N)=O)c1	ADA	-	Monocytes/macrophages	p24	-	17.5 µM
CN(C)CCCN=C(c1ccccc1)N1CCN(C(=O)C(=O)c2c[nH]c3cccc(F)c23)CC1	Luciferase reporter virus	-	HeLa(CD4+) + HeLa	luciferase	-	>0.5 µM
CC(C)C1=C2[C@H]3CC[C@@H]4[C@@]5(C)CC[C@H](OC(=O)[C@H]6C[C@@H](C(=O)O)C6(C)C)C(C)(C)[C@@H]5CC[C@@]4(C)[C@]3(C)CC[C@@]2([C@@H](O)CNCC(C)(C)NC(=O)c2ccc(N3CCS(=O)(=O)CC3)cc2)CC1=O	92HT599	-	MT-2	p24 / ELISA	-	<1 µM
COc1cnc(-c2ccc(C(=O)N3CCCCC3)cc2)c2[nH]cc(C(=O)C(=O)N3CCC(=C(C#N)c4ccccc4)CC3)c12	-	-	HeLa	luciferase	-	<1 µM

The last 4 rows once more:

smiles | strain or isolate | mutations | cell line | method | conditions | value
CC(=O)Nc1ccc(SSc2ccc(NC(C)=O)cc2C(N)=O)c(C(N)=O)c1 | ADA | - | Monocytes/macrophages | p24 | - | 17.5 µM
CN(C)CCCN=C(c1ccccc1)N1CCN(C(=O)C(=O)c2c[nH]c3cccc(F)c23)CC1 | Luciferase reporter virus | - | HeLa(CD4+) + HeLa | luciferase | - | >0.5 µM
CC(C)C1=C2[C@H]3CC[C@@H]4[C@@]5(C)CC[C@H](OC(=O)[C@H]6C[C@@H](C(=O)O)C6(C)C)C(C)(C)[C@@H]5CC[C@@]4(C)[C@]3(C)CC[C@@]2([C@@H](O)CNCC(C)(C)NC(=O)c2ccc(N3CCS(=O)(=O)CC3)cc2)CC1=O | 92HT599 | - | MT-2 | p24 / ELISA | - | <1 µM
COc1cnc(-c2ccc(C(=O)N3CCCCC3)cc2)c2[nH]cc(C(=O)C(=O)N3CCC(=C(C#N)c4ccccc4)CC3)c12 | - | - | HeLa | luciferase | - | <1 µM